This is a selection; strong and weak results do not stand in their true shares. The source made the active and inactive calls. No stated cut-off is given here; in the data, active means inhibition above about 50%; inactive means the rest.

By inhibition is commonly meant the drop in the measured response relative to a control, in per cent.

A short description of this experiment: Leishmania major promastigote growth inhibition, primary screen (AID 1063).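 Further: promastigotes grown with compound for 44 hours at 28 °C.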 Conditions: Leishmania major promastigotes, resazurin fluorescence viability; at 10 µM; active compounds read high.
In the case of `CN1CCC(Nc2cccc(F)c2)CC1`, the inhibition was inactive: 3.92%. On to `CN(C)c1cccc(C(=O)NCC2(N3CCCCC3)CCCCC2)c1`, for which the inhibition is inactive: 10.1%. For `COc1ccc(CN(CCCl)CCCl)cc1Cl`, the inhibition was inactive: 5.63%. As for `CC(C)c1ccc(NC2CCN(C(=O)OC(C)(C)C)CC2)cc1`, the inhibition was inactive: -4.14%.

With `CN1CCN(CCOC(=O)C(O)(c2ccccc2)c2ccccc2)CC1`, the inhibition was inactive: 38.9%. The same measure for `COc1ccc(NC2CCN(C(=O)OC(C)(C)C)CC2)cc1`: inactive: 4.05%. Turning to `O=C(NCC1(N2CCOCC2)CCCCC1)c1cc(=O)[nH]c2ccccc12`, the inhibition is inactive: 0.88%. `O=C(NCC1(N2CCCCC2)CCCCC1)c1cccc([N+](=O)[O-])c1`: the inhibition is inactive: 1.07%. Regarding `N#CC1(Nc2ccccc2)CCN(CCc2ccccc2)CC1`, the inhibition was inactive: -1.39%. Turning to `COc1ccc(NC2CCN(CCc3ccccc3)CC2)c(OC)c1`, the inhibition is active: 91.7%. `O=C(NCC1(N2CCOCC2)CCCCC1)c1cc2ccccc2o1`: the inhibition was inactive: 12.4%. As to `CCOC(=O)N1CCC(Nc2ccc(OC)cc2)CC1`, the inhibition is inactive: 12.9%. Then `O=C(OC1CN2CCC1CC2)C1c2ccccc2Oc2ccccc21` (stereo not given), with active: 100%. Take `COc1ccc(C(=O)NCC2(N3CCCCC3)CCCCC2)c(OC)c1OC`: the inhibition was inactive: -5%. For the molecule `CCC(CO)(C(=O)OC1CN2CCC1CC2)c1ccccc1` (stereo not given), the inhibition was active: 91.7%.

Turning to `COc1cc(OC)cc(C(=O)NCC2(N3CCOCC3)CCCCC2)c1`, the inhibition was inactive: 5.37%. `CCOc1ncccc1C(=O)NCC1(N2CCOCC2)CCCCC1`: the inhibition is inactive: 5.83%. Take `CC(C)(C)OC(=O)N1CCC(Nc2ccccc2)CC1`: the inhibition was inactive: -14.3%.

In the case of `CCN1CCC(Nc2cccc(F)c2)CC1`, the inhibition was inactive: -2.06%. Then `CN(C)c1ccc(C(=O)NCC2(N3CCCCC3)CCCCC2)cc1`, with inactive: 5.06%; and `c1ccc(CN2CCC(Nc3ccccc3)CC2)cc1`, with active: 86.2%; and `N#Cc1ccc(C(=O)NCC2(N3CCCCC3)CCCCC2)cc1`, with inactive: -0.46%.

Take `N/C(=N\O)c1c(N)no[n+]1[O-]`: the inhibition was inactive: -1.16%. On to `O=C(OC1CN2CCC1CC2)C1c2ccccc2C=Cc2ccccc21` (stereo not given), for which the inhibition is active: 77.9%. In the case of `COc1ccc(C(=O)NCC2(N3CCOCC3)CCCCC2)cc1OC`, the inhibition is inactive: 2.33%.

The values above are taken from PubChem BioAssay AID1063 (University of Pittsburgh Molecular Library Screening Center, 2008).
